Here are results for one molecule from patent US20240002434A1, “METHODS OF INACTIVATING VIRAL CONTAMINANTS” (ICHNOS SCIENCES SA, priority 2017, published 2024).

This experiment can be described thus: Cell based functional assay of BEAT®2. As to the method:
Some samples of the ones described above, were selected to be tested by surface plasmon resonance (Table 37). […] In addition, cell based functional assay were also performed to directly verify the impact of high pH on BEAT®2 molecule activity.
The half maximal effective concentration (EC50) were determined based on the dose-response curves. The EC50 values obtained allowed to determine the relative potency of each sample tacking as reference the sample with high pH incubation time equal to zero.

B1: BEAT ®2 (protein)
chain 1: DIQMTQSPSSLSASVGDRVTITCQASQDVITSVAWYQQKPGKAPKLLIYSASYRYTGVPSRFSGSGSGTDFTFTISSLQPEDIATYYCQQHYTIPLTFGQGTKLEIKRTVAAPSVFIFPPSDEQLKSGTASVVCLLNNFYPREAKVQWKVDNALQSGNSQESVTEQDSKDSTYSLSSTLTLSKADYEKHKVYACEVTHQGLSSPVTKSFNRGEC
chain 2: QVTLKESGPTLVKPTQTLTLTCTFSGLSLSTSGKGVGWIRQPPGKALEWLAHIWWDDDKRYNPALKSRLTITKDTSKNQVVLTMTNMDPVDTATYYCARIELGRSYVMDYWGQGTLVTVSSASTKGPSVFPLAPSSKSTSGGTAALGCLVKDYFPEPVTVSWNSGALTSGVHTFPAVLQSSGLYSLSSVVTVPSSSLGTQTYICNVNHKPSNTKVDKKVEPKSCDKTHTCPPCPAPEAAGGPSVFLFPPKPKDTLMISRTPEVTCVVVDVSHEDPEVQFKWYVDGVEVHNAKTKPREEQYNSTFRVVSVLTVLHQDWLNGKEYKCKVSNKALPAPIEKTISKTKGQPREPAVYTLPPSREEMTKNQVKLVCLVTGFYPSDIAVEWESSGQPENNYYTTPPMLDSDGSFSLVSWLNVDKSRWQQGNIFSCSVMHEALHNRFTQKSLSLSPG
chain 3: EVQLVESGGGLVQPGGSLRLSCAASGFTFNTYAMNWVRQAPGKGLEWVARIRSKYNNYATYYADSVKGRFTISRDDSKNTLYLQMNSLRAEDTAVYYCVRHGNFGNSYVSYFAYWGQGTTVTVSSGGGGSGGGGSGGGGSEIVVTQSPATLSVSPGERATLSCRSSTGAVTESNYANWVQEKPGQAFRGLIGGANKRAPGVPARFSGSLSGDEATLTISSLQSEDFAVYYCALFYSNTWVFGQGTKLEIKGGGGTDKTHTCPPCPAPEAAGGPSVFLFPPKPKDTLMISRTPEVTCVVVDVSHEDPEVKFNWYVDGVEVHNAKTKPREEQYNSTYRVVSVLTVLHQDWLNGKEYKCKVSNKALPAPIEKTISKAKGQPREPEVATFPPSRDELTKNQVTLVCLVTGFYPSDIAVEWESNGQPENNYKTDPPLLESQGSFALSSRLRVDKSRWQQGNVFSCSVMHEALHNHYTQKSLSLSPG
B1: the “Relative potency (%)” value (PA Eluate (reference)) is 100%; the “Relative potency (%)” value (high pH treatment, t0) came to 114%; the “Relative potency (%)” value (high pH treatment, t1 h) is 71.7%; the “Relative potency (%)” value (high pH treatment, t2 h) was 88.5%.
